# Laboratory results as given in patent US20070218001A1.
# Target: biotin-… peptide (Bacillus anthracis)
substance,measurement,value
phage-displayed third PDZ domain of human Dlg1 (in pCANTAB5E),OD405,0.496 OD405
